Compound potency records, mixed from different reports. Data source: NIAID ChemDB in PubChem.

Shared fields: tests in culture; species: Influenza A virus

ECn: concentration that inhibits the pathogen or its effect by n%. Neighbouring rows are from separate reports. Blank or dashed fields: not listed here.

structure | measure | strain | cell line | method | result
O=[N+]([O-])c1c(N2CCCC2)ncnc1N1CC[N+]2(CC1)CC[N+]1(CCN(c3ncnc(N4CCCC4)c3[N+](=O)[O-])CC1)CC2 | EC50 |  | MDCK | cytopathic effect | >70 µg/mL
NC12CC3CC(CC(C3)C1)C2 | EC50 | H1N1 A/TEXAS/36/91 | MDCK | neutral red | 2 µM
CC(C)/C=C1\N=C(CC(C)C)C(=O)N(O)C1=O | EC50 |  | MDCK |  | 5.9 µM
C#Cc1c(C(N)=O)ncn1[C@@H]1O[C@H](CO)[C@@H](O)[C@H]1O | EC50 | A/Ishikawa | MDCK | plaque count | 2.5 µg/mL
C[C@@H]1CCC[C@@H]2C[C@@H](NC(=O)c3c(O)cccc3F)CCN21 | EC50 | H1N1 A/WSN/33 | MDBK | plaque count | 10 µg/mL
C/C=C1\[C@H](OC2O[C@H](CO)[C@@H](O)[C@H](O)[C@H]2O)OC=C(C(=O)OC)[C@H]1CC(=O)OCC1O[C@H](OCCc2ccc(O)c(O)c2)[C@@H](O)[C@H](O)[C@H]1O | EC50 | H3N2 | MDCK | cytopathic effect | >100 µM
NC12CC3CC(CC(C3)C1)C2 | EC50 | Influenza A/Ishikawa/7/82 (H3N2) | MDCK | plaque count | 10 µg/mL
C[C@@H]1CCC[C@@H]2C[C@@H](NC(=O)c3c(O)ccc4ccccc34)CCN21 | EC50 | H1N1 A/WSN/33 | MDBK | plaque count | >20 µg/mL
CCOC(=O)C1=C[C@@H](OC2CCCCC2)[C@H](NC(C)=O)[C@@H](N)C1 | EC50 | H1N1 A/PR/8/34 | MDCK cells | cytopathic effect | 28.5 µM
Nc1ccc(S(=O)(=O)O)c2cc(S(=O)(=O)O)cc(O)c12 | EC50 | Influenza A/Ishikawa/7/82 (H3N2) | MDCK | cytopathic effect | >200 µM
Cc1cc(Cl)c([N+](=O)[O-])c(N2CC[N+]3(CC2)CC[N+]2(CCN(c4nc(C)cc(Cl)c4[N+](=O)[O-])CC2)CC3)n1 | EC50 |  | MDCK | cytopathic effect | >70 µg/mL
NC(=O)c1ncn([C@@H]2O[C@H](CO)[C@@H](O)[C@H]2O)n1 | EC50 | A/Brazil | MDCK | cytopathic effect | 6.25 µg/mL
C=Cc1ccc(O)c(C(=O)N[C@H]2CCN3[C@H](CCC[C@H]3C)C2)c1 | EC50 | H1N1 A/WSN/33 | MDBK | plaque count | 2 µg/mL
NC(=O)c1ncn([C@@H]2O[C@H](CO)[C@@H](O)[C@H]2O)n1 | EC50 | H1N1 A/WSN | MDCK |  | 50 µM
Cc1nc(C2CCCCCC2)c([N+](=O)[O-])c(N2CC[N+]3(CC2)CC[N+]2(CCN(c4nc(C)nc(C5CCCCCC5)c4[N+](=O)[O-])CC2)CC3)n1 | EC50 |  | MDCK | cytopathic effect | >70 µg/mL
CC(N)C12CC3CC(CC(C3)C1)C2 | EC50 | H1N1 A/FM/1/47 | MDCK | plaque count | 0.62 µM
CC(N)C12CC3CC(CC(C3)C1)C2 | EC50 | H1N1 A/Brazil/11/78 | MDCK |  | 0.6 µM
CC(N)C12CC3CC(CC(C3)C1)C2 | EC50 | H3N2 A/HK/7/87 | MDCK cells | cytopathic effect | 0.15 µM
CC(C)CCCC(C)C1CCC2C3CC=C4CC(OC(=O)Nc5ccc(S(=O)(=O)O)c6ccccc56)CCC4(C)C3CCC12C | EC50 | Influenza A/Ishikawa/7/82 (H3N2) | MDCK | cytopathic effect | 15 µM
OC(CCl)CN1CC[N+]2(CC1)CC[N+]1(CCN(CC(O)CCl)CC1)CC2 | EC50 |  | MDCK | cytopathic effect | >70 µg/mL
CCC(=O)N[C@@H]([C@@H]1OC(C(=O)O)=C[C@H](N=C(N)N)[C@H]1NC(C)=O)[C@H](O)CO | EC50 | A/Yamagata/32/89 |  | plaque count | 0.1 µg/mL
CC(=O)N[C@H]1[C@H]([C@H](O)[C@H](O)CO)OC(C(=O)O)=C[C@@H]1N | EC50 | Influenza A/Mississippi/1/85 (H3N2) | MDCK | plaque count | 1.2 µM
Cc1ccc(C(=O)N[C@H]2CCN3[C@H](CCC[C@H]3C)C2)c(O)c1 | EC50 | H1N1 A/WSN/33 | MDBK | plaque count | 4 µg/mL
CCCC(=O)O[C@H]1CN2CC[C@H](O)[C@@H]2[C@@H](O)[C@@H]1O | EC50 | A/HONG KONG/11/88 | MDCK | plaque count | <6 µM
O=C(CCCl)NN1CC[N+]2(CC1)CC[N+]1(CCN(NC(=O)CCCl)CC1)CC2 | EC50 |  | MDCK | cytopathic effect | >70 µg/mL
NC12CC3CC(CC(C3)C1)C2 | EC50 | H1N1 A/PR/8/34 | MDCK cells | cytopathic effect | 134.5 µM
CC(=O)N[C@@H]1[C@@H](N=C(N)N)C=C(C(=O)O)O[C@H]1C(F)(F)[C@H](O)CO | EC50 | A/Yamagata/32/89 |  | plaque count | 0.01 µg/mL
Cc1ccccc1NC(=O)CSc1sc(N)nc1-c1ccc(Br)cc1Br | EC50 | H1N1 A/PR/8/34 | MDCK cells | cytopathic effect | 0.39 µM
N=C(N)c1ncn([C@@H]2O[C@H](CO)[C@@H](O)[C@H]2O)n1 | EC50 | H1N1 A/PR/8/34 | MDCK | neutral red | 18 µg/mL
C/C=C1\[C@H](OC2O[C@H](CO)[C@@H](O)[C@H](O)[C@H]2O)OC=C(C(=O)OC)[C@H]1CC(=O)OC | EC50 | H3N2 | MDCK | cytopathic effect | >100 µM
COc1ncnc(N2CC[N+]3(CC2)CC[N+]2(CCN(c4ncnc(OC)c4[N+](=O)[O-])CC2)CC3)c1[N+](=O)[O-] | EC50 |  | MDCK | cytopathic effect | >70 µg/mL
CCC1[C@H](OC2O[C@H](CO)[C@@H](O)[C@H](O)[C@H]2O)OC=C(C(=O)O)[C@H]1CC(=O)OCCc1ccc(O)cc1 | EC50 | H3N2 | MDCK | cytopathic effect | >100 µM
CC(C)CC1=N/C(=C\c2ccc(F)cc2)C(=O)N(O)C1=O | EC50 |  |  |  | >10 µM
O=[N+]([O-])c1ccc(N2CC[N+]3(CC2)CC[N+]2(CCN(c4ccc([N+](=O)[O-])cc4[N+](=O)[O-])CC2)CC3)c([N+](=O)[O-])c1 | EC50 |  | MDCK | cytopathic effect | >70 µg/mL
CC1(C)C[C@H](O)C[C@@](C)(CNC(=O)c2cc(Cl)ccc2O)C1 | EC50 | H-1 |  | plaque count | 0.13 µg/mL
NC(=O)c1ncn([C@@H]2O[C@H](CO)[C@@H](O)[C@H]2O)n1 | MIC | A/University of Maryland/2/72 |  |  | 0.1 µg/mL
CC(C)CCCC(C)C1CCC2C3CC=C4CC(OC(=O)Nc5cc(S(=O)(=O)O)cc6cc(S(=O)(=O)O)cc(O)c56)CC[C@]4(C)C3CC[C@]12C | EC50 | Influenza A/Ishikawa/7/82 (H3N2) | MDCK | cytopathic effect | >200 µM
NC1CCCCCCC1 | MIC | A/Maryland/104/68 |  |  | 0.1 µg/mL
CCCCCCCCCCCCCCCC(=O)N[C@@H]([C@@H]1OC(C(=O)O)=C[C@H](N=C(N)N)[C@H]1NC(C)=O)[C@H](O)CO | EC50 | A/Yamagata/32/89 |  | plaque count | 0.4 µg/mL
NC12CC3CC(CC(C3)C1)C2 | EC50 | H1N1 NWS/33 | MDCK | plaque count | >50 µg/mL
C#Cc1c(C(N)=O)ncn1[C@@H]1O[C@H](CO)[C@@H](O)[C@H]1O | EC50 | Influenza A/Ishikawa/7/82 (H3N2) | MDCK | plaque count | 2.3 µg/mL
CC(C)CCCC(C)C1CCC2C3CC=C4CC(OC(=O)Nc5ccc(S(=O)(=O)O)c6cccc(S(=O)(=O)O)c56)CCC4(C)C3CCC12C | EC50 | Influenza A/Ishikawa/7/82 (H3N2) | MDCK | cytopathic effect | 4 µM
C[C@@H]1CCC[C@@H]2C[C@@H](NC(=O)c3cc(I)ccc3O)CCN21 | EC50 | H1N1 A/WSN/33 | MDBK | plaque count | 1 µg/mL
NC(=O)c1ncn([C@@H]2O[C@H](CO)[C@@H](O)[C@H]2O)n1 | EC50 |  | MDCK | plaque count | 3.99 µg/mL
O=C(O[C@@H]1Cc2c(O)cc(O)cc2O[C@@H]1c1cc(O)c(O)c(O)c1)c1cc(O)c(O)c(O)c1 | EC50 | H1N1 A/Yamagata/120/86 | MDCK | plaque count | 200 µM
C[C@@H]1CCC[C@@H]2C[C@@H](NC(=O)c3cc(Cl)c(N=[N+]=[N-])cc3O)CCN21 | EC50 | H1N1 A/WSN/33 | MDBK | plaque count | >20 µg/mL

Again, the opening 7 rows:

{"structure": "O=[N+]([O-])c1c(N2CCCC2)ncnc1N1CC[N+]2(CC1)CC[N+]1(CCN(c3ncnc(N4CCCC4)c3[N+](=O)[O-])CC1)CC2", "measure": "EC50", "cell line": "MDCK", "method": "cytopathic effect", "result": ">70 µg/mL"}
{"structure": "NC12CC3CC(CC(C3)C1)C2", "measure": "EC50", "strain": "H1N1 A/TEXAS/36/91", "cell line": "MDCK", "method": "neutral red", "result": "2 µM"}
{"structure": "CC(C)/C=C1\\N=C(CC(C)C)C(=O)N(O)C1=O", "measure": "EC50", "cell line": "MDCK", "result": "5.9 µM"}
{"structure": "C#Cc1c(C(N)=O)ncn1[C@@H]1O[C@H](CO)[C@@H](O)[C@H]1O", "measure": "EC50", "strain": "A/Ishikawa", "cell line": "MDCK", "method": "plaque count", "result": "2.5 µg/mL"}
{"structure": "C[C@@H]1CCC[C@@H]2C[C@@H](NC(=O)c3c(O)cccc3F)CCN21", "measure": "EC50", "strain": "H1N1 A/WSN/33", "cell line": "MDBK", "method": "plaque count", "result": "10 µg/mL"}
{"structure": "C/C=C1\\[C@H](OC2O[C@H](CO)[C@@H](O)[C@H](O)[C@H]2O)OC=C(C(=O)OC)[C@H]1CC(=O)OCC1O[C@H](OCCc2ccc(O)c(O)c2)[C@@H](O)[C@H](O)[C@H]1O", "measure": "EC50", "strain": "H3N2", "cell line": "MDCK", "method": "cytopathic effect", "result": ">100 µM"}
{"structure": "NC12CC3CC(CC(C3)C1)C2", "measure": "EC50", "strain": "Influenza A/Ishikawa/7/82 (H3N2)", "cell line": "MDCK", "method": "plaque count", "result": "10 µg/mL"}